Measured values from several laboratories, pooled; numbers as filed in NIAID ChemDB.

Shared fields: whole-cell or culture tests; agent: HIV-1

ECn: concentration that inhibits the pathogen or its effect by n%.

| structure | changes | strain or isolate | endpoint | method | cell line | result |
|---|---|---|---|---|---|---|
| CC(C)(C)NC(=O)[C@@H]1C[C@@H]2CCCC[C@@H]2CN1CC(O)CNC(=O)[C@@H]1N[C@@H]([C@H](NC(=O)Cc2ccccc2)C(=O)NCCNC(=O)OC(C)(C)C)SC1(C)C | - | RF | EC50 | syncytia | C8166 | 0.1 µM |
| Fc1ccccc1N=C1/C(=C/c2ccco2)CNC/C1=C\c1ccco1 | - | HXB2 | EC50 | luciferase / single cycle | TZM-bl | >114.8 µM |
| Cc1cc(O)c(C)c(C(=O)N[C@@H](Cc2ccc3ccccc3c2)[C@H](O)C(=O)N2C[C@@H](Cl)C[C@H]2C(=O)NC(C)(C)C)c1 | - | IIIB | EC50 | p24 | CEM | <0.027 µM |
| CC(C)(C)NC(=O)[C@@H]1C[C@@H]2CCCC[C@@H]2CN1C[C@@H](O)[C@H](Cc1ccccc1)NC(=O)O[C@@H]1CCS(=O)(=O)C1 | - | IIIB | EC95 | p24 | MT-4 | >0.8 µM |
| C(=C1/CNC/C(=C\c2ccco2)C1=NNc1ccccc1)/c1ccco1 | - | HXB2 | EC50 | luciferase / single cycle | TZM-bl | 1.47 µM |
| CC(C)(C)NC(=O)[C@@H]1CN(Cc2cccnc2)CCN1C[C@H](C[C@@H](Cc1ccccc1)C(=O)N[C@H]1c2ccccc2C[C@H]1O)OC(=O)CCCCNC(=O)O[C@H]1[C@@H](C2COC(C)(C)O2)OC2OC(C)(C)O[C@H]21.O=C(O)C(F)(F)F.O=C(O)C(F)(F)F | - | IIIB | EC50 | cytopathic effect / MTT | MT-4 | 42 µM |
| CC1(C)CC(NC(=O)C(=O)Nc2ccc(Cl)cc2)CC(C)(C)N1 | - | HXB2 | EC50 | luciferase / single cycle | TZM-bl | 2.1 µM |
| CCCC[C@@H]1[C@H](OC(=O)N[C@@H](Cc2ccccc2)[C@H](O)CN2C[C@H]3CCCC[C@H]3C[C@H]2C(=O)NC(C)(C)C)CCS1(=O)=O | - | IIIB | EC50 | p24 | MT-4 | <0.8 µM |
| NC(=O)c1ccc(Cn2cc(CSc3nc(Cc4cccc5ccccc45)c(I)c(=O)[nH]3)nn2)cc1 | - | IIIB | EC50 | MTT | - | >88.01 µM |
| Cc1c(O)cc(F)cc1C(=O)N[C@@H](Cc1ccc2ccccc2c1)[C@H](O)C(=O)N1C[C@@H](Cl)C[C@H]1C(=O)NC(C)(C)C | - | IIIB | EC90 | p24 | CEM | 0.031 µM |
| CC(C)(C)C(=O)c1sc(C(=O)NCc2ccccc2)c(O)c1O | - | TZ97002 X4 CLADE A | EC50 | p24 | PBMC | 0.4 µM |
| CC(=O)c1ccc(CN2CCC(N=C3C=C(Cc4cccc5ccccc45)NS(=O)(=O)N3)CC2)cc1 | - | IIIB | EC50 | MTT | MT-4 | ≥33.42 µM |
| C(=C1/CNC/C(=C\c2ccco2)C1=Nc1ccccc1)/c1ccco1 | - | HXB2 | EC50 | luciferase / single cycle | TZM-bl | >121 µM |
| CC(C)(C)NC(=O)[C@@H]1CC2CCCCC2CN1C[C@@H](OC(=O)CCC(=O)O[C@H]1[C@@H](C2COC(C)(C)O2)OC2OC(C)(C)O[C@H]21)[C@H](Cc1ccccc1)NC(=O)[C@H](CC(N)=O)NC(=O)c1ccc2ccccc2n1 | - | IIIB | EC50 | cytopathic effect / MTT | MT-4 | 0.15 µM |
| CN(C)c1ccc(CNC(=O)[C@@H](NC(=O)Cc2ccccc2)[C@@H]2N[C@@H](C(=O)NC[C@@H](O)CN3C[C@H]4CCCC[C@H]4C[C@H]3C(=O)NC(C)(C)C)C(C)(C)S2)cc1 | - | RF | EC50 | syncytia | C8166 | 0.27 µM |
| Nc1ccn([C@H]2CC[C@@H](CO)O2)c(=O)n1 | RD 23-RTwt | - | EC50 | cytopathic effect / MTT | MT-4 | 0.84 µM |
| N#Cc1ccccc1CN1CCC(N=C2C=C(Cc3cccc4ccccc34)NS(=O)(=O)N2)CC1 | - | IIIB | EC50 | MTT | MT-4 | 26.3 µM |
| CC(C)(C)NC(=O)[C@@H]1CC2CCCCC2CN1C[C@@H](OC(=O)CCC(=O)O[C@H]1[C@@H](C2COC(C)(C)O2)OC2OC(C)(C)O[C@H]21)[C@H](Cc1ccccc1)NC(=O)[C@H](CC(N)=O)NC(=O)c1ccc2ccccc2n1.O=C(O)C(F)(F)F.O=C(O)C(F)(F)F | - | LAI | EC50 | cytopathic effect / MTT | CEM + CEM-SS | 0.032 µM |
| COc1ccc(Cn2cc(CSc3nc(Cc4c(Cl)cccc4Cl)c(I)c(=O)[nH]3)nn2)cc1 | - | IIIB | EC50 | MTT | - | >75.91 µM |
| CC(C)(C)NC(=O)[C@@H]1CC2CCCCC2CN1C[C@@H](OC(=O)CCCCNC(=O)O[C@H]1[C@@H](C2COC(C)(C)O2)OC2OC(C)(C)O[C@H]21)[C@H](Cc1ccccc1)NC(=O)[C@H](CC(N)=O)NC(=O)c1ccc2ccccc2n1.O=C(O)C(F)(F)F.O=C(O)C(F)(F)F.O=C(O)C(F)(F)F.O=C(O)C(F)(F)F | - | LAI | EC50 | cytopathic effect / MTT | CEM + CEM-SS | 3.6 µM |
| CC1(C)S[C@H]([C@H](NC(=O)Cc2ccccc2)C(=O)NCc2ccccc2)N[C@H]1C(=O)NCCNC(=O)[C@@H]1N[C@@H]([C@H](NC(=O)Cc2ccccc2)C(=O)NCc2ccccc2)SC1(C)C | - | RF | EC50 | syncytia | MT-4 | 0.06 µM |
| Nc1ccn([C@H]2CC[C@@H](CO)O2)c(=O)n1 | RT-D67N K70R L74V T215F K219Q | HIVRTMC (RT D67N K70R L74V T215F K219Q) | EC50 | plaque count | - | 2 µM |
| Cn1cc(C(=O)O)c(=O)c2cc(F)c(N3CC=C(c4ccccc4)CC3)c(C(F)(F)F)c21 | - | IIIB | EC50 | p24 | MOLT-4/M0(HIV-1(IIIB)) + MOLT-4 | 0.05 µM |
| CO[P@](=O)(c1cc(C)cc(/C=C/C#N)c1)c1c(C(N)=O)[nH]c2ccc(Cl)c(F)c12 | - | BH10 | EC50 | - | MT-4 | 0.001 µM |
| CC(C)(C)NC(=O)[C@@H]1CN(Cc2cccnc2)CCN1C[C@@H](O)C[C@@H](Cc1ccccc1)C(=O)N[C@H]1c2ccccc2C[C@H]1O | - | IIIB | EC50 | cytopathic effect / MTT | MT-4 | 0.022 µM |
| C[C@@H]1[C@H](OC(=O)N[C@@H](Cc2ccccc2)[C@H](O)CN2C[C@H]3CCCC[C@H]3C[C@H]2C(=O)NC(C)(C)C)CCS1(=O)=O | - | IIIB | EC50 | p24 | MT-4 | <0.2 µM |
| Cc1cc(O)c(C)c(C(=O)N[C@@H](Cc2ccc(-c3ccccc3)cc2)[C@H](O)C(=O)N2C[C@@H](Cl)C[C@H]2C(=O)NC(C)(C)C)c1 | - | IIIB | EC50 | p24 | CEM | <0.048 µM |
| Cc1c(Cc2c(Cl)cccc2Cl)nc(SCc2cn(Cc3ccc(S(N)(=O)=O)cc3)nn2)[nH]c1=O | - | RES056 | EC50 | MTT | - | >95.49 µM |
| Cc1ccnc2c1NC(=O)c1cccnc1N2C1CC1 | RT-K103N Y181C | RES056 | EC50 | MTT | MT-4 | ≥7.58 µM |
| Cc1ccnc2c1NC(=O)c1cccnc1N2C1CC1 | - | IIIB | EC50 | MTT | MT-4 | 0.072 µM |
| Nc1nc(NC2CC2)c2ncn([C@H]3C=C[C@@H](CO)C3)c2n1 | HXB2-RTwt | HXB2 | EC50 | cytopathic effect / MTT | MT-4 | 1.36 µM |
| CC(C)(C)NC(=O)[C@@H]1C[C@@H]2CCCC[C@@H]2CN1C[C@H](O)CNC(=O)[C@@H]1N[C@@H]([C@H](NC(=O)Cc2ccccc2)C(N)=O)SC1(C)C | - | RF | EC50 | syncytia | C8166 | 0.12 µM |
| N#Cc1ccc(Cn2cc(CSc3nc(Cc4c(Cl)cccc4Cl)cc(=O)[nH]3)nn2)cc1 | - | RES056 | EC50 | MTT | - | >133 µM |
| CC(C)(C)NC(=O)[C@@H]1CN(Cc2cccnc2)CCN1C[C@@H](O)C[C@@H](Cc1ccccc1)C(=O)N[C@H]1c2ccccc2C[C@H]1OC(=O)CCCCO[C@@H]1[C@@H](O)[C@@H](O)O[C@H](CO)[C@H]1O | - | LAI | EC50 | cytopathic effect / MTT | CEM + CEM-SS | 0.048 µM |
| CCC[C@@H]1[C@H](OC(=O)N[C@@H](Cc2ccccc2)[C@H](O)CN2C[C@H]3CCCC[C@H]3C[C@H]2C(=O)NC(C)(C)C)CCS1(=O)=O | - | IIIB | EC50 | p24 | MT-4 | <0.8 µM |
| Cc1c(O)cccc1C(=O)N[C@@H](Cc1ccccc1)[C@H](O)C(=O)N1C[C@@H](Cl)C[C@H]1C(=O)NC(C)(C)C | - | IIIB | EC50 | p24 | CEM | <0.11 µM |
| N#Cc1ccccc1CN1CCC(N=C2C=C(Cc3ccc(Cl)cc3Cl)NS(=O)(=O)N2)CC1 | - | IIIB | EC50 | MTT | MT-4 | 23.15 µM |
| Cc1ccnc2c1NC(=O)c1cccnc1N2C1CC1 | - | RES056 | EC50 | MTT | - | ≥7.59 µM |
| COC(=O)[C@@H](NC(=O)Cc1ccccc1)[C@@H]1N[C@@H](C(=O)NCCNC(=O)[C@@H]2N[C@@H]([C@H](NC(=O)Cc3ccccc3)C(=O)OC)SC2(C)C)C(C)(C)S1 | - | RF | EC50 | syncytia | MT-4 | >100 µM |
| Cc1cn([C@H]2C[C@H](N=[N+]=[N-])[C@@H](CO)O2)c(=O)[nH]c1=O | - | IIIB | EC50 | p24 / ELISA | MT-2 | 0.0057 µM |
| CC(C)(C)NC(=O)[C@@H]1C[C@@H]2CCCC[C@@H]2CN1CC(O)CNC(=O)[C@@H]1N[C@@H]([C@H](NC(=O)Cc2ccccc2)C(=O)NCCNC(=O)CCCC[C@@H]2SC[C@@H]3NC(=O)N[C@@H]32)SC1(C)C | - | RF | EC50 | cytopathic effect / MTT | MT-4 | 18 µM |

Repeating the final 3 entries:

structure | changes | strain or isolate | endpoint | method | cell line | result
COC(=O)[C@@H](NC(=O)Cc1ccccc1)[C@@H]1N[C@@H](C(=O)NCCNC(=O)[C@@H]2N[C@@H]([C@H](NC(=O)Cc3ccccc3)C(=O)OC)SC2(C)C)C(C)(C)S1 | - | RF | EC50 | syncytia | MT-4 | >100 µM
Cc1cn([C@H]2C[C@H](N=[N+]=[N-])[C@@H](CO)O2)c(=O)[nH]c1=O | - | IIIB | EC50 | p24 / ELISA | MT-2 | 0.0057 µM
CC(C)(C)NC(=O)[C@@H]1C[C@@H]2CCCC[C@@H]2CN1CC(O)CNC(=O)[C@@H]1N[C@@H]([C@H](NC(=O)Cc2ccccc2)C(=O)NCCNC(=O)CCCC[C@@H]2SC[C@@H]3NC(=O)N[C@@H]32)SC1(C)C | - | RF | EC50 | cytopathic effect / MTT | MT-4 | 18 µM

Lines come from different laboratories, so protocols vary. An empty or dashed field is not shown.